Compound potency records, mixed from different reports. Data source: NIAID ChemDB in PubChem.

All rows: tests in culture; species: Hepatitis C virus; method: PCR; measure: EC50

ECn is the concentration giving n% inhibition of infection, replication or growth. Two numbers with a dash give a range or band. Lines come from different laboratories, so protocols vary. An empty or dashed field is not shown.

| compound | conditions | cells | strain or isolate | value |
|---|---|---|---|---|
| COc1ccc(-c2nc3ccc(NCc4ccc(Cl)c(C(F)(F)F)c4)cc3n(CCNC(C)=O)c2=O)cc1 | - | Huh7 | GT1b | 0.012 µM |
| CC(=O)Oc1c(C(=O)Oc2ccccc2)c2c(c3ccccc13)OC(C)(C)CC2 | - | Huh7 | GT1b | 5 µg/mL |
| C=C[C@@H]1C[C@]1(NC(=O)[C@@H]1C[C@@H]2CN1C(=O)[C@H](C(C)(C)C)NC(=O)C[C@@H]1C[C@H]1CCCCCc1nc3ccc(OC)cc3nc1O2)C(=O)NS(=O)(=O)C1CC1 | - | Huh7 | S52 | 0.000035 µM |
| CC1(C)CCc2c(C(=O)OCc3ccc(Cl)cc3)c(O)c3ccccc3c2O1 | - | Huh7 | GT1b | 5 µg/mL |
| COc1cc(C2OCC3C(=O)OCC32)cc(O)c1OC | - | Ava5 | - | 10.5 µM |
| CC1(C)CCc2c(C(=O)Oc3ccccc3)c(O)c3ccccc3c2O1 | - | Huh7 | GT1b | 5 µg/mL |
| COc1nc(N)nc2c1ncn2[C@@H]1O[C@H](COP(=O)(N[C@@H](C)C(=O)OCC(C)(C)C)Oc2cccc3ccccc23)[C@@H](O)[C@@]1(C)O | 24 h | Huh7 | 1a | 0.012 µM |
| CCOc1ccc2nc(NC(=O)Nc3cccc(OC)c3)sc2c1 | - | Huh7.5 | - | 1.7 µM |
| COC(=O)c1c(CC=C(C)C)c(O)c2ccccc2c1O | - | Huh7 | GT1b | 5–10 µg/mL |
| Cc1ccc2nc(Nc3cc(O)cc(C(=O)O)c3)sc2c1 | - | Huh7 | Con1 | >200 µM |
| NC(=O)c1ccc(F)c(Cn2c(C(=O)NS(=O)(=O)C3CC3)c(-c3ccc[nH]c3=O)c3c4c(c(F)cc32)-c2ccoc2-4)c1 | - | Replicon cells | - | 0.01 µM |
| C(=C\c1ccccc1)/CNc1ccc2nc[nH]c2c1 | - | Huh7.5 | - | 5.1 µM |
| COC(=O)C1=C(C(=O)OC)C2N(CCOCCN3c4ccccc4[C@]45CC(=O)N(Cc6ccccc6)C4=NC(C(=O)OC)=C(C(=O)OC)C35)C3C=CC=CC3[C@@]23CCC(=O)N(Cc2ccccc2)C3=N1 | - | Huh7.5 | - | 2.5 µM |
| N#Cc1cccc(S(=O)(=O)N(Cc2c(Cl)cccc2Cl)c2cccc(C(=O)NC3CCC3)c2)c1 | - | Huh 5-2 | 1b | 28 µM |
| COC(=O)C1=C(C(=O)OC)C2N(CCCCCNC(=O)CCCCCNC(=O)CCCC3SCC4NC(=O)NC43)c3ccccc3[C@@]23CC(=O)N(Cc2ccccc2)C3=N1 | - | Huh7.5 | - | 4.8 µM |
| Fc1ccccc1-c1nc2ccn(Cc3ccc(-c4ccc(C(F)(F)F)cc4C(F)(F)F)nn3)cc-2n1 | - | Huh7 | GT1b | 0.02–0.03 µg/mL |
| Cn1c(=O)[nH]c(=O)c2cc(CN3c4cc(F)c5ccoc5c4C(c4ccc[nH]c4=O)C3C(=O)O)c(F)cc21 | - | Replicon cells | - | 0.3 µM |
| COC(=O)c1c2c(c3ccccc3c1O)OC(C)(C)CC2 | - | Huh7 | GT1b | 1–2 µg/mL |
| Cc1nc2cc(F)c(CN3c4cc(F)c5ccoc5c4C(c4ccc[nH]c4=O)C3C(=O)O)cc2c(=O)[nH]1 | - | Replicon cells | - | 0.02 µM |
| CCCCn1c(=O)c2cc(OC)ccc2c2cc(C(O)(C(F)(F)F)C(F)(F)F)c(OC)cc21 | - | #50-1 | 1b | 0.4 µM |
| OCc1nnc(-c2ccc(N3CC(Oc4ccccc4C(F)(F)F)C3)nn2)o1 | - | Huh7 | GT1b | 0.0009 µM |
| O=C(O)C1C(c2ccc[nH]c2=O)c2c(cc(F)c3ccoc23)N1Cc1cc2[nH]c(=O)[nH]c2cc1F | - | Replicon cells | - | 0.01 µM |
| Cc1cc(C)cc(Nc2nc3ccc(C)cc3s2)c1 | - | Huh7 | Con1 | 5 µM |
| Cc1cc2c(cc1F)c(C#N)c(-c1ccc(S(=O)(=O)N[C@@H](C)C(F)(F)F)cn1)n2-c1ncccn1 | - | - | 1b | 0.0057 µM |
| OCc1ccn2cc(-c3cn(Cc4cc(Cl)c(Cl)c(Cl)c4)nn3)nc2c1 | - | Huh7 | GT1b | 0.013 µM |
| CCOc1nc(N)nc2c1ncn2[C@@H]1O[C@@H]2COP(=O)(OC(C)C)O[C@H]2[C@@]1(C)F | - | Lunet | 1a | 0.2 µM |
| O=C(O)C1C(c2ccc[nH]c2=O)c2c(cc(F)c3ccoc23)N1Cc1cc2c(=O)[nH]cnc2cc1F | - | Replicon cells | - | 0.006 µM |
| Cc1ccc(Nc2nc3ccc(C)cc3s2)c(C)c1 | - | Huh7 | Con1 | >200 µM |

2 of the rows above, restated:

compound | conditions | cells | strain or isolate | value
COC(=O)c1c(CC=C(C)C)c(O)c2ccccc2c1O | - | Huh7 | GT1b | 5–10 µg/mL
C(=C\c1ccccc1)/CNc1ccc2nc[nH]c2c1 | - | Huh7.5 | - | 5.1 µM